Fitness effects across NS2B and the NS3 protease domain of Zika virus

Data from the supplement of Ni et al. 2025, doi:10.1038/s41467-025-63602-z.

Chain scanned (Zika virus MR766; NS2B from position 2 to 131, then the start of NS3):
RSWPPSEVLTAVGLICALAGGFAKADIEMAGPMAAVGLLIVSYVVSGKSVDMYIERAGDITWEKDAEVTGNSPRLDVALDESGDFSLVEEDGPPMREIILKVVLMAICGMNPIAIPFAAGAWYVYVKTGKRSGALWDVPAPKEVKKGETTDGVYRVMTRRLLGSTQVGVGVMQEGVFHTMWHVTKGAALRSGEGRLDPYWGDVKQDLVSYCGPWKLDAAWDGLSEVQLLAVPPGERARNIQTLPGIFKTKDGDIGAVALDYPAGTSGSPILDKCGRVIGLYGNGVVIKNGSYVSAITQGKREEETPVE

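Mutant virus pools were grown in human Huh-7.5 cells. The effect is the change in frequency of a mutant, normalised to wild type, as a mean of three replicate libraries (two for positions 207-308). The study looked for pockets that tolerate few changes, as a guide for inhibitor design.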

The number is log2 of the effect relative to wild type; negative values mean reduced growth, higher values better tolerance.
Each entry names the wild-type residue, its position and the residue put in its place.
An asterisk is a stop codon; stop codons read about -7, near the floor of the assay.
Values above 0 are not proof of better growth: six high scorers were tested one by one, five grew less well than wild type and one about as well.
Positions 1-103, 104-206 and 207-308 were made and measured as separate libraries.
The authors count -1 or higher as tolerated. Position 1 is the last residue of NS2A.

| # | mutation | log2 growth effect |
|---|---|---|
| 1 | G212C | -6.67 |
| 2 | T165H | 0.58 |
| 3 | T150E | -3.27 |
| 4 | E193Y | -2.41 |
| 5 | A106G | -1.10 |
| 6 | I107V | -0.41 |
| 7 | E225N | -5.31 |
| 8 | R155L | -7.51 |
| 9 | A25N | -4.66 |
| 10 | A19G | -0.89 |
| 11 | G147R | -5.86 |
| 12 | L79K | -6.44 |
| 13 | H178E | -4.53 |
| 14 | K146V | -1.49 |
| 15 | G47I | -6.17 |
| 16 | R159W | -4.88 |
| 17 | M105N | -5.78 |
| 18 | V45A | -4.96 |
| 19 | Y210N | -6.70 |
| 20 | N239Y | -5.16 |
| 21 | R155Y | -5.85 |
| 22 | P73E | -5.27 |
| 23 | K64D | -0.07 |
| 24 | A23L | -3.94 |
| 25 | E63D | 0.00 |
| 26 | G58M | -5.59 |
| 27 | R96M | -4.46 |
| 28 | G186E | -5.44 |
| 29 | S164* | -6.43 |
| 30 | P5F | -5.86 |
| 31 | G255H | -6.35 |
| 32 | T242H | -5.27 |
| 33 | A57C | 0.12 |
| 34 | K250Q | -0.95 |
| 35 | P116F | -4.80 |
| 36 | V176F | -4.21 |
| 37 | R160N | -3.76 |
| 38 | E55V | -1.48 |
| 39 | D137R | -7.32 |
| 40 | L161P | -5.09 |
| 41 | V103S | -1.23 |
| 42 | F177G | -6.60 |
| 43 | V102R | -7.70 |
| 44 | A119C | -1.46 |
| 45 | T149E | -3.51 |
| 46 | G92Q | -4.33 |
| 47 | G175N | -0.07 |
| 48 | V41K | -5.16 |
| 49 | V102M | 0.60 |
| 50 | G222L | -4.51 |
| 51 | R195A | -6.18 |
| 52 | W122M | -4.06 |
| 53 | N283C | -5.27 |
| 54 | V144P | -3.24 |
| 55 | S132M | -5.77 |
| 56 | I98N | -5.79 |
| 57 | D272I | -3.92 |
| 58 | S291I | -4.93 |
| 59 | C274Q | 0.29 |
| 60 | V231K | -4.16 |
| 61 | E308M | 0.22 |
| 62 | Y261Q | -1.18 |
| 63 | L228E | -3.63 |
| 64 | I98E | -5.32 |
| 65 | G222S | -1.68 |
| 66 | A188S | -1.96 |

5 of these entries, quoted again:

mutation,log2 growth effect
P5F,-5.86
P116F,-4.80
G212C,-6.67
T165H,0.58
V45A,-4.96